Measurements taken from paper PMC11329928, “Design, synthesis and structure-activity relationship (SAR) studies of an unusual class of non-cationic fatty amine-tripeptide conjugates as novel synthetic antimicrobial agents” (Frontiers in Pharmacology, 2024).

Tests used:
[1] = test system: human erythrocytes (hRBCs); assay type: cell-based; conditions: for SI Spn (HC50/SC or IC50av/SC): S. pneumoniae D39, lower bound over both definitions; for SI Spn HC50/SC / SI Spy HC50/SC: selective index; for SI Spn HC50/SC: HC50 over SC for S. pneumoniae D39; for SI Spy HC50/SC: HC50 over SC for S. pyogenes T
[2] = test system: S. pneumoniae D39; assay type: cell-based, Streptococcus pneumoniae; conditions: 1 h treatment, C + Y, 37°C, Hill fit
From the text: (§1) First, the substitution of the fatty amino chain of 18 carbon atoms of the reference compound DICAM 2 by either an OMe group (methylated tripeptide DICAM 5) or an amine with 12 carbon atoms (DICAM 9) abolished the activity against all three pathogens. However, the activity remained intact when the chain of the fatty amine of prototypes DICAMs 1 and 4 was two carbon atoms shorter (DICAM 10 and DICAM 12, respectively), based on S. pneumoniae and S. pyogenes results. […] Third, Glu and Ala were tolerated as C-terminal residues of the lipotripeptides. […] In addition, deletion of the C-terminal Glu (DICAM 13) eradicated the activity against S. pneumoniae and S. aureus. However, a delay and small inhibition of S. pyogenes ^T growth was still observed. Fourth, Glu (DICAMs 19 and 20) and Orn (DICAMs 21 and 22) were tolerated as N-terminal residues, with the impact of these modifications being pathogen-dependent. […] SAR studies continued by measuring the dose dependence of DICAM’s activity at T1 with all the compounds found to be active against S. pyogenes or S. aureus in the initial screening, and all but one compound in the case of S. pneumoniae. The OD values of bacterial cultures were monitored after DICAM addition, and the decrease in the number of viable bacteria was measured relative to controls (Figures 4–6; Supplementary Figure S1). As antibacterial efficacy may decline with the bacterium dose in the inoculum ([Belley et al., 2009]; [Udekwu et al., 2009]; [Luca et al., 2013]), the assays were performed using the bacterial concentrations necessary for the fluorescence experiments in Section 2.3 (10^7–10^8 CFU/mL). At these high bacterial densities, MICs were determined as the DICAM concentration at which bacteria neither grow nor are killed (the stationary concentration (SC)), following [Udekwu et al., 2009]. By fitting the logarithmic plot of cell viability decrease vs. the DICAM dose to a Hill function (see Section 5.2.3.1) we were able to determine the maximum variation in viability (Δlogmax = ∆log f - ∆log 0, where ∆log f and ∆log 0 are the upper and lower limits of Δlog) in the assay conditions, the SC concentration (Δlog = 0), the dose required for half-variation in Δlogmax (K 1/2), and the cooperativity of the antimicrobial effect (N H).
(§2) Susceptibility to DICAMs was first tested by growth-inhibition assays at 50 and 100 μM of compound. Briefly, working solutions at 5 mM or 10 mM DICAM in pure DMSO were prepared from DICAM stocks (40 mM in pure DMSO) and diluted with fresh culture medium to 5× the desired final concentration. Aliquots (50 µL) of these solutions were added to 200 µL of bacterium cultures grown to early exponential phase (OD550/600 c. a. 0.15–0.2 in sterile 96-well plates (Cultek, Spain). Incubation continued for 10 h at 37°C and turbidity (OD550/600) values were measured every 20 min to monitor growth and lysis, using a VersaMax microplate reader (Molecular Devices; United Kingdom). Next, the activity dependence on DICAM’s dose was examined by measuring the turbidity of treated and untreated cultures as a function of time. Also, the decay of bacterial viability (CFU/mL) at selected times of treatment was assessed by colony counting on LB-agar or TSA plates after overnight incubation at 37°C. By default, 10 μL of 10-fold serially diluted samples were plated, which set the lower detection limit at 10^2 CFU/mL (10^1 CFU/mL when 100 μL of the undiluted sample was seeded).
(§3) As antibacterial efficacy may decline with the bacterium dose in the inoculum ([Belley et al., 2009]; [Udekwu et al., 2009]; [Luca et al., 2013]), activity assays were performed using the bacterial concentrations required for the fluorescence experiments in Section 2.3 (10^7–10^8 CFU/mL). At such bacterial densities, MICs were determined as the DICAM concentration at which bacteria neither grow nor are killed under assay conditions (the stationary concentration (SC)), as indicated in Section 2.2. […]

[3] = test system: S. pyogenes T; assay: Dose dependence of bacterial viability (CFU counting, Hill fit); assay type: cell-based, Streptococcus pyogenes; conditions: 2 h treatment, BHI, 37°C
From the text: as §1, §2, §3

[4] = test system: A549, IMR-90 and HeLa cells; conditions: selective index; for SI Spn IC50av/SC: mean of the three IC50 values over SC for S. pneumoniae D39; for SI Spy IC50av/SC: mean of the three IC50 values over SC for S. pyogenes T

Row | Molecule | SI Spn (HC50/SC or IC50av/SC) [1] | SI Spn HC50/SC [1] | SI Spy HC50/SC [1] | N H (Hill slope), S. pneumoniae D39 [2] | N H (Hill slope), S. pyogenes T [3] | SI Spn IC50av/SC [4] | SI Spy IC50av/SC [4] | SI Spy (HC50/SC or IC50av/SC) ([1]; S. pyogenes T, lower bound over both definitions) | SI values (HC50/SC or IC50av/SC), S. pyogenes and S. pneumoniae ([1]; span over both definitions and both pathogens)
1 | CCCCCCCCCCCCCCCCNC(=O)[C@H](CCC(=O)O)NC(=O)[C@H]1CCCN1C(=O)[C@H](CC(N)=O)NC(=O)OCc1ccccc1 [DICAM 10, Cbz-Asn- Pro -Glu-NH-C16H33] | ≥ 3.2 | 3.2 | 2.2 | 2.3 ± 0.3 | 2.4 ± 0.5 | 10.6 | 7.2 | – | –
2 | CCCCCCCCCCCCCCCCCCNC(=O)[C@H](CCC(=O)O)NC(=O)[C@H]1CCCN1C(=O)[C@H](C)NC(C)=O [DICAM 24, Ac-Ala- Pro -Glu-NH-C18H37] | – | 2.2 | 2.3 | 2.7 ± 0.7 | 3.0 ± 0.4 | 9.3 | 9.3 | – | –
3 | CCCCCCCCCCCCCCCCCCNC(=O)[C@H](C)NC(=O)[C@H]1CCCN1C(=O)[C@H](C)N [DICAM 14, Ala- Pro -Ala-NH-C18H37 · HCl] | – | 1 | 1.6 | – | 2.1 ± 0.9 | 0.2 | 0.33 | – | –
4 | CCCCCCCCCCCCCCCCCCNC(=O)[C@H](CCC(=O)O)NC(=O)[C@H]1CCCN1C(=O)[C@H](CCCN)NC(=O)OCc1ccccc1 [DICAM 21, Cbz-Orn- Pro -Glu-NH-C18H37] | – | 1.5 | 1.2 | 4 ± 1 | 1.0 ± 0.5 | 10.7 | 8.6 | – | –
5 | CCCCCCCCCCCCCCCCCCNC(=O)[C@H](CCC(=O)O)NC(=O)[C@H]1CCCN1C(=O)[C@H](CC(N)=O)NC(=O)OCc1ccccc1 [DICAM 1, Cbz-Asn- Pro -Glu-NH-C18H37] | ≥ 6.2 | 6.25 | 2.8 | 1.5 ± 0.1 | 1.2 ± 0.1 | 18.8 | 8.6 | – | –
6 | CCCCCCCCCCCCCCCCCCNC(=O)[C@H](CCC(=O)O)NC(=O)[C@H]1CCCN1C(=O)[C@H](C)NC(=O)OCc1ccccc1 [DICAM 3, Cbz-Ala- Pro -Glu-NH-C18H37] | – | 1.7 | 3.7 | 3.7 ± 0.5 | 1.7 ± 0.1 | 9.4 | 20 | ≥ 3.7 | –
7 | CCCCCCCCCCCCCCCCCCNC(=O)[C@H](CCC(=O)O)NC(=O)[C@H]1CCCN1C(=O)[C@@H](N)CCCN [DICAM 22, Orn- Pro -Glu-NH-C18H37 · HCl] | – | 0.6 | – | ∼4 | – | 2.9 | – | – | –
8 | CCCCCCCCCCCCCCCCCCNC(=O)[C@H](CCC(=O)O)NC(=O)[C@H]1CCCN1C(=O)[C@@H](N)CC(N)=O [DICAM 2, Asn- Pro -Glu-NH-C18H37 ·HCl] | – | 2 | 1.6 | 2.1 ± 0.2 | 1.4 ± 0.3 | 10.6 | 8.7 | – | –
9 | CCCCCCCCCCCCCCCCCCNC(=O)[C@H](CCC(=O)O)NC(=O)[C@H]1CCCN1C(=O)[C@@H](N)CCC(=O)O [DICAM 20, Glu- Pro -Glu-NH-C18H37 · HCl] | – | 2 | 0.75 | ∼4 | 1.3 ± 0.3 | 25.4 | 9.5 | – | –
10 | Ala - Pro -Glu-NH-C18H37 · HCl [DICAM 23] | – | – | – | 2.0 ± 0.4 | – | – | – | – | –
11 | CCCCCCCCCCCCCCCCCCNC(=O)[C@H](CCC(=O)O)NC(=O)[C@H]1CCCN1C(=O)[C@H](C)N [DICAM 4, Ala- Pro -Glu-NH-C18H37 ·HCl] | – | 1.75 | 0.7 | 1.8 ± 0.3 | 1.2 ± 0.1 | 10 | 4 | – | –
12 | CCCCCCCCCCCCCCCCCCNC(=O)[C@H](CCC(=O)O)NC(=O)[C@H]1CCCN1C(=O)[C@H](CCC(=O)O)NC(=O)OCc1ccccc1 [DICAM 19, Cbz-Glu- Pro -Glu-NH-C18H37] | – | 40 | 31.6 | ∼4 | 1.6 ± 0.3 | 15 | 11.8 | – | 12–40

Counter-ions that a name gives are not always drawn.
